Values are the deposited “Percent Effect”, in %.
How 0% and 100% were set is not recorded. Most values in the screen are low, and negative values occur.
Many other results are left out here, so strong results are more common than in the screen.
Two or more numbers in one place are separate tests of the same structure; such repeats can differ widely.

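Phenotypic screen: M. tuberculosis growth, glucose 7H9 medium, 3 days; the read-out is not stated. Tested at 50 µM. Higher reads as more growth inhibition (inferred: compounds with an IC50 in retests scored well above the rest). Size under these conditions: about 69,000 compounds, about 760 of them at 50% or above in at least one test.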

| SMILES | percent effect |
|---|---|
| `Cc1ccc(-n2c(C)nnc2SCC(O)COCc2ccco2)cc1` (centres unmarked) | 52.47 |
| `O=C(NC1CCCN(CCCc2ccccc2)C1)c1ccc(Cl)s1` (centres unmarked) | 61.81 |
| `CC(O)(CNc1ccc(Cl)c(C#N)n1)c1ccccc1` (centres unmarked) | 58.3 |
| `Cc1nc(CN2CCN(CCCc3nc4ccccc4o3)CC2)no1` | -22.36 |
| `OCC1(Cc2ccccc2F)CCCN(c2ccc3ccccc3n2)C1` (centres unmarked) | 19.95 |
| `Cc1cc(NC(=O)CNC(C)(C)c2ccc3c(c2)OCCO3)no1` | -11.43 & 3.215 |
| `CC(NCc1ccc(OCC(N)=O)cc1)c1ccc2c(c1)CCCC2` (centres unmarked) | 57.16 |
| `Cc1ncc(CN(C)C(=O)Nc2cccc(N3CCNC3=O)c2)s1` | -18.2 |
| `CC(C)Cc1cc(NC(=O)c2ccccc2F)n(C)n1` | 43.39 |
| `CCSc1nc2ccccc2c(=O)n1OCC(=O)OC` | 67.21 |
| `NS(=O)(=O)CC1CCN(c2ncccc2C(F)(F)F)CC1` | -16.95 |
| `Cc1cccc(=O)n1CCCNc1nc(N(C)C)nc2c1CCNC2` | -38.14 |
| `[H][C@]12CC[C@]([H])(CN(Cc3nnc(-c4ccccc4)o3)C1)N(CC1CCC1)C2` | -43.34 |
| `Cc1cccc(NCCNc2ccc(C#N)cn2)n1` | -2.257 |
| `CCCc1nc(N2CCCCC2)c2c(n1)c(C)nn2CC` | 37.3 & 28.66 |
| `COc1cccc(-c2cnnc(N(C)CCC3CCCCO3)n2)c1` (centres unmarked) | 12.24 |
| `Cc1cc(C(=O)NCC(C)N2CCc3ccccc32)on1` (centres unmarked) | -3.536 |
| `Cc1ccc(N2N=C(C(=O)O)S(=O)(=O)c3cccnc32)cc1` | 34.61 |
| `CCCN1CCC(NC(=O)c2csc(C)c2-c2ccccc2)CC1` | 6.253 & -0.6244 |
| `Cc1ccnc(N2Cc3cnn(Cc4ccc(F)cc4)c3C2)n1` | 36.19 |
| `Cc1ccc(C)c(-n2cc(CN3CCOCC3)c(-c3ccccc3)n2)c1` | 6.312 |
| `N#CCCCn1nnc(C2(NC(=O)c3ccccc3)CCCC2)n1` | -11.76 |
| `CCc1ocnc1C(=O)N1CCC2(CC1)OCC(C)O2` (centres unmarked) | 10.13 & 8.645 |
| `N#Cc1c[nH]nc1NCc1ccc2c(c1)OCO2` | 3.266 & -0.7974 |
| `COCC(=O)NC(c1ccc(Cl)cc1)C(F)(F)F` (centres unmarked) | 50.34 & 19.03 |
| `CS(=O)(=O)c1cccc(C(N)c2ccc(Cl)cc2)c1` (centres unmarked) | 10.85 |
| `CCS(=O)(=O)CCNc1nc(C2CCCC2)nc2c1cnn2C` | 5.046 |
| `O=C(NCCNc1ccc(C(F)(F)F)cn1)c1cncc(Br)c1` | 5.744 |
| `Cc1cc(C)n(C2CCCN(C(=O)Cc3cccs3)C2)n1` (centres unmarked) | 50.81 |
| `O=C(NCCc1c[nH]c2ccccc12)C1CCC(Cn2cnnn2)CC1` (centres unmarked) | -8.585 |
| `Br.Cc1ccc(OCCCSC2=NCCN2)cc1` | 20.82 |
| `CC(Oc1ccc2c(c1)OCO2)C(=O)N1CCC(N2CCOCC2)CC1` (centres unmarked) | -6.208 |
| `CC(C)(C)c1cc(C(=O)NCCN2CCCS2(=O)=O)[nH]n1` | -1.452 |
| `CC(CNS(C)(=O)=O)c1ccc(F)c(F)c1` (centres unmarked) | -6.709 & 16.53 |
| `NC(=O)CCSc1n[nH]c(-c2ccc3c(c2)CCC3)n1` | 20.44 |
| `CC(=O)Nc1ccc(-c2ccccc2CCN)cc1` | 40.71 |
| `CN1C[C@@H](N)C[C@H]1C(=O)N1CCC(Cc2ccc(F)cc2)CC1` | 18.83 |
| `CN(Cc1ccc(-n2cccn2)cc1)C(=O)CCC(F)(F)F` | 19.92 |
| `Cc1cccnc1NC(=O)C1(n2cnnn2)CCCCC1` | 7.531 |
| `CNC(=O)C1CCN(C(=O)c2cccn2Cc2cccs2)CC1` | -4.416 |
| `c1cnc(N2CCCC(c3cncc(-n4ccnc4)n3)C2)nc1` (centres unmarked) | 17.18 |
| `Cc1ccsc1[C@@H]1CCN(C(=O)CCC(=O)N2CCCCCC2)C[C@H]1O` | -15.86 & 31.13 |
| `COCCCN(Cc1ccncc1)C(=O)CSc1ccc(F)cc1` | -16.39 |
| `Cc1noc(COCC(=O)Nc2ccc(Br)c(C)n2)n1` | 41.42 |
| `CCN(CC)S(=O)(=O)N1CCc2nc(C3CCNCC3)ncc2C1.Cl` | 36.36 |
| `[H][C@]12CC[C@]([H])(CN(Cc3noc(C4CCCC4)n3)C1)N(CC1CCC1)C2` | -22.55 |
| `c1ccc(Oc2ccc(OC34CCCN(CC3)C4)cc2)cc1` (centres unmarked) | 75.14 & 70.84 |
| `Cc1cc(NC(=O)C(C)Cn2cc(Br)cn2)no1` (centres unmarked) | 19.82 |
| `CCOC(=O)c1cc(C(C)(O)CCC=C(C)C)on1` (centres unmarked) | 88.78 & 108.4 |
| `CCC(=O)NCC(c1ccc(SC)cc1)N1CCc2sccc2C1` (centres unmarked) | 35.87 |
| `O=C(NCCSC1CCCC1)c1cc(C2CC2)on1` | 19.07 |
| `COc1ccc(CCC(C)Nc2cccc(SC)c2)cc1` (centres unmarked) | 50.98 |
| `CN(Cc1ccncc1)Cc1nccn1Cc1ccccc1` | 12.64 |
| `Cl.Nc1ccc(-c2cnc(C3CCCN3)cn2)cn1` (centres unmarked) | 8.63 |
| `Cc1cc(C)c(CNC(=O)NC2COc3ccccc3C2)c(=O)[nH]1` (centres unmarked) | -6.217 |
| `Cc1ccc(C(=O)N2CCN(c3ccnc4ccsc34)CC2)o1` | 35.58 |
| `Cl.NC(=O)COc1ccc(CNCc2cc(F)ccc2F)cc1` | -56.32 |
| `CO[C@H]1CCN(Cc2nccs2)C[C@@H]1Cc1ccccc1` | 55.46 |
| `Br.Cc1ccc(C(=O)CN(C2=NCCCCC2)c2ccccc2)cc1` | 53.14 |
| `CCOC(=O)CSc1ccc(-c2nc(CC)no2)cn1` | 68.07 |
| `O=C(Cc1ccsc1)N1CCC(c2ccncc2)CC1` | -18.72 |
| `O=C(NCCSC1CCCC1)c1cnccn1` | -23.26 |
| `Cc1cc(C(O)CCNC(=O)COc2ccccc2F)c(C)o1` (centres unmarked) | 51 & 27.78 |
| `COc1cccc(CCC(=O)N2CCN(CC(C)(C)O)CC2)c1` | -29.88 |
| `Fc1cccc(OC2CCN(Cc3ncc[nH]3)CC2)c1` | -21.66 |
| `CN(CCc1ccccn1)C(=O)c1ccccc1F` | 24.26 |
| `COc1cc(C)ccc1OCCC(=O)N1CCC(C(N)=O)C1` (centres unmarked) | -0.5406 |
| `CCC(C)NS(=O)(=O)c1ccc(C(=O)N(C)C2(C#N)CCC2)cc1` (centres unmarked) | -22.57 |
| `COc1cc(CNCCn2cc(C)cn2)cc2c1OCCO2` | 24.13 |
| `COc1ccc(CNC(Cc2ccsc2)c2ccc(C)cn2)c(OC)c1` (centres unmarked) | 60.99 |
| `Cc1c(C(=O)NCC2CCN(C)C2)n(C)c2c(C)cccc12` (centres unmarked) | -13.47 |
| `CC(CN1CCOCC1)NC(=O)c1cc(Cl)c2c(c1)OCO2` (centres unmarked) | 9.891 |
| `OCCn1nccc1C1CCN(CCOc2cccc(F)c2)CC1` | 13.91 |
| `Cc1cnn(CC2CN(CCS(=O)(=O)C(F)(F)F)CCO2)c1` (centres unmarked) | -42.14 |
| `COc1ccc(-c2ccccc2CCN)c(OC)c1OC` | 53.44 & 50.26 |
| `CN1CCN(C(=O)NC2CC2)Cc2cccnc21.O=C(O)C(F)(F)F` | -0.2836 |
| `O=S(=O)(CCN1CCOC(Cn2cccn2)C1)C(F)(F)F` (centres unmarked) | 83.87 |
| `CC(C)OCc1noc(C2CCOC2)n1` (centres unmarked) | -19.13 |
| `CN(C)Cc1ccnc(NS(=O)(=O)CCc2ccccc2)c1` | -9.328 |
| `COc1cccc(CNC(=O)Nc2ccc3[nH]nnc3c2)c1OC` | -5.475 & 53.38 |
| `CCOc1cc(C(=O)n2cccn2)cc(OCC)c1OCC` | 7.435 & 31.55 |
| `CN1CCCC(c2cncc(-c3cccc(C(F)(F)F)c3)n2)C1` (centres unmarked) | 31.42 |
| `CN(Cc1cccc(Cl)c1)Cc1nnsc1Cl` | -8.157 |
| `[H][C@]12CC[C@]([H])(CN(Cc3[nH]cnc3C)C1)N(Cc1cccc(C)n1)C2` | 54.3 & -2.152 |
| `O=C(NCC1CCOC1)c1csc(-c2ccc(Cl)cc2)n1` (centres unmarked) | 42.25 |
| `CCN1CCC(CNCc2c[nH]nc2C(C)(C)C)C1.Cl` (centres unmarked) | 76.39 |
| `CN(Cc1cccnc1)CC1CC12CCN(Cc1nccs1)CC2` (centres unmarked) | 8.006 & 0.5424 |
| `[H][C@@]12CCC(=O)N(CCc3ccc(C)o3)[C@]1([H])CCN(Cc1cnn(C)c1)C2` | 13.3 |
| `COc1c(Br)cccc1CCNC(=O)c1ncoc1C` | 29.36 & 13.69 |

Repeated from the top, 7 entries:

* Cc1ccc(-n2c(C)nnc2SCC(O)COCc2ccco2)cc1 (centres unmarked) : 52.47%
* O=C(NC1CCCN(CCCc2ccccc2)C1)c1ccc(Cl)s1 (centres unmarked) : 61.81%
* CC(O)(CNc1ccc(Cl)c(C#N)n1)c1ccccc1 (centres unmarked) : 58.3%
* Cc1nc(CN2CCN(CCCc3nc4ccccc4o3)CC2)no1 : -22.36%
* OCC1(Cc2ccccc2F)CCCN(c2ccc3ccccc3n2)C1 (centres unmarked) : 19.95%
* Cc1cc(NC(=O)CNC(C)(C)c2ccc3c(c2)OCCO3)no1 : -11.43% & 3.215%
* CC(NCc1ccc(OCC(N)=O)cc1)c1ccc2c(c1)CCCC2 (centres unmarked) : 57.16%

From ChEMBL document CHEMBL3988442, “University of Dundee, Small-Polar-MMV Screening Library” (2021).